Results taken from patent publication EP4821928A1, “BICYCLIC HETEROCYCLIC COMPOUND AND FUNGICIDE FOR AGRICULTURAL AND HORTICULTURAL USE CONTAINING SAME AS ACTIVE INGREDIENT” (dated 2026).

Tests used:
[1] = system: Magnaporthe grisea; assay: Rice blast disease pot test (Test Example A); conditions: for Rice blast disease pot test (control value): 250 ppm sprayed, 2.5 ml/pot, rice variety Sachikaze, degree of disease development 6 to 8 days after inoculation; for control value: Test Example A, rice blast disease pot test
[2] = system: Botrytis cinerea; assay: Tomato gray mold pot test (Test Example B); conditions: for Tomato gray mold pot test (control value): 250 ppm sprayed, 2.5 ml/pot, tomato variety Oogata Fukuju, degree of disease development 2 to 3 days after inoculation; for control value: Test Example B, tomato gray mold pot test
[3] = system: Gray mold fungus (Botrytis cinerea); assay: Gray mold anti-germ test (Test Example C); conditions: for Gray mold anti-germ test (rate of inhibition): 50 ppm/well, Czapek-dox broth, 25°C for 3 days, absorbance 600 nm; for rate of inhibition: Test Example C, gray mold anti-germ test
[4] = system: Fusarium blight fungus (Fusarium graminearum); assay: Fusarium blight anti-germ test (Test Example D); conditions: for Fusarium blight anti-germ test (rate of inhibition): 50 ppm/well, Czapek-dox broth, 25°C for 3 days, absorbance 600 nm; for rate of inhibition: Test Example D, Fusarium blight anti-germ test
[5] = system: Anthracnose fungus (Glomerella cingulata); assay: Anthracnose anti-germ test (Test Example E); conditions: for Anthracnose anti-germ test (rate of inhibition): 50 ppm/well, Czapek-dox broth, 25°C for 3 days, absorbance 600 nm; for rate of inhibition: Test Example E, anthracnose anti-germ test
[6] = system: Speckled leaf blotch fungus (Septoria tritici); assay: Speckled leaf blotch anti-germ test (Test Example F); conditions: for Speckled leaf blotch anti-germ test (rate of inhibition): 50 ppm/well, Czapek-dox broth, 25°C for 3 days, absorbance 600 nm; for rate of inhibition: Test Example F, speckled leaf blotch anti-germ test

Structure (SMILES) | Rice blast disease pot test (control value) [1] | Tomato gray mold pot test (control value) [2] | Gray mold anti-germ test (rate of inhibition) [3] | Fusarium blight anti-germ test (rate of inhibition) [4] | Anthracnose anti-germ test (rate of inhibition) [5] | Speckled leaf blotch anti-germ test (rate of inhibition) [6] | control value [1] | control value [2] | rate of inhibition [3] | rate of inhibition [4] | rate of inhibition [5] | rate of inhibition [6]
C=Cc1cccc2c1ncn2C1=NC(C)(C)Oc2c(C)cccc21 | H (H represents a control value or rate of inhibition of larger than 50%) | L (L represents a control value or rate of inhibition of 50% or less) | H (H represents a control value or rate of inhibition of larger than 50%) | L (L represents a control value or rate of inhibition of 50% or less) | H (H represents a control value or rate of inhibition of larger than 50%) | H (H represents a control value or rate of inhibition of larger than 50%) | – | – | – | – | – | –
CCCC1(CC)N=C(c2cnn3ccccc23)c2ccccc2O1 (stereo not drawn) | – | – | – | – | – | – | H (H represents a control value or rate of inhibition of larger than 50%) | H (H represents a control value or rate of inhibition of larger than 50%) | H (H represents a control value or rate of inhibition of larger than 50%) | H (H represents a control value or rate of inhibition of larger than 50%) | H (H represents a control value or rate of inhibition of larger than 50%) | H (H represents a control value or rate of inhibition of larger than 50%)
Cc1ccc2c(ncn2C2=NC(C)(C)S(=O)(=O)c3c(F)cccc32)c1C | H (H represents a control value or rate of inhibition of larger than 50%) | H (H represents a control value or rate of inhibition of larger than 50%) | H (H represents a control value or rate of inhibition of larger than 50%) | H (H represents a control value or rate of inhibition of larger than 50%) | H (H represents a control value or rate of inhibition of larger than 50%) | L (L represents a control value or rate of inhibition of 50% or less) | – | – | – | – | – | –
Cc1ccc2c(ncn2C2=NC(C)(C)Oc3cc(NC(=O)OC(C)(C)C)ccc32)c1C | L (L represents a control value or rate of inhibition of 50% or less) | L (L represents a control value or rate of inhibition of 50% or less) | H (H represents a control value or rate of inhibition of larger than 50%) | L (L represents a control value or rate of inhibition of 50% or less) | H (H represents a control value or rate of inhibition of larger than 50%) | H (H represents a control value or rate of inhibition of larger than 50%) | – | – | – | – | – | –
Cc1ccc2c(c1)OC(C)(C)N=C2n1cnc2c(C)c(C)ccc21 [56] | H (H represents a control value or rate of inhibition of larger than 50%) | H (H represents a control value or rate of inhibition of larger than 50%) | H (H represents a control value or rate of inhibition of larger than 50%) | H (H represents a control value or rate of inhibition of larger than 50%) | H (H represents a control value or rate of inhibition of larger than 50%) | H (H represents a control value or rate of inhibition of larger than 50%) | – | – | – | – | – | –
Cc1cnc2c(C3=NC(C)(C)Oc4ccccc43)cnn2c1 | – | – | – | – | – | – | H (H represents a control value or rate of inhibition of larger than 50%) | H (H represents a control value or rate of inhibition of larger than 50%) | L (L represents a control value or rate of inhibition of 50% or less) | L (L represents a control value or rate of inhibition of 50% or less) | H (H represents a control value or rate of inhibition of larger than 50%) | L (L represents a control value or rate of inhibition of 50% or less)
CC(=O)C1(C)N=C(n2cnc3c(C)c(C)ccc32)c2cccc(C)c2O1 (stereo not drawn) | H (H represents a control value or rate of inhibition of larger than 50%) | H (H represents a control value or rate of inhibition of larger than 50%) | H (H represents a control value or rate of inhibition of larger than 50%) | H (H represents a control value or rate of inhibition of larger than 50%) | H (H represents a control value or rate of inhibition of larger than 50%) | H (H represents a control value or rate of inhibition of larger than 50%) | – | – | – | – | – | –
CCOC(=O)CC1(C)N=C(n2cnc3c(C)c(C)ccc32)c2ccc(C)cc2O1 (stereo not drawn) | H (H represents a control value or rate of inhibition of larger than 50%) | H (H represents a control value or rate of inhibition of larger than 50%) | H (H represents a control value or rate of inhibition of larger than 50%) | H (H represents a control value or rate of inhibition of larger than 50%) | H (H represents a control value or rate of inhibition of larger than 50%) | L (L represents a control value or rate of inhibition of 50% or less) | – | – | – | – | – | –
CCOCC1(C)N=C(c2cnn3ccnc(C)c23)c2ccccc2O1 (stereo not drawn) | – | – | – | – | – | – | L (L represents a control value or rate of inhibition of 50% or less) | L (L represents a control value or rate of inhibition of 50% or less) | L (L represents a control value or rate of inhibition of 50% or less) | L (L represents a control value or rate of inhibition of 50% or less) | L (L represents a control value or rate of inhibition of 50% or less) | H (H represents a control value or rate of inhibition of larger than 50%)
COc1cccc2c1OC(C)(C)N=C2n1cnc2c(C)c(C)ccc21 | H (H represents a control value or rate of inhibition of larger than 50%) | H (H represents a control value or rate of inhibition of larger than 50%) | H (H represents a control value or rate of inhibition of larger than 50%) | H (H represents a control value or rate of inhibition of larger than 50%) | H (H represents a control value or rate of inhibition of larger than 50%) | L (L represents a control value or rate of inhibition of 50% or less) | – | – | – | – | – | –
Cc1ccc2c(C3=NC(C)(C)Sc4ccccc43)cnn2c1C | H (H represents a control value or rate of inhibition of larger than 50%) | H (H represents a control value or rate of inhibition of larger than 50%) | H (H represents a control value or rate of inhibition of larger than 50%) | H (H represents a control value or rate of inhibition of larger than 50%) | H (H represents a control value or rate of inhibition of larger than 50%) | H (H represents a control value or rate of inhibition of larger than 50%) | – | – | – | – | – | –
Cc1cccc2c1OC1(CCC1)N=C2n1cnc2c(C)cccc21 | H (H represents a control value or rate of inhibition of larger than 50%) | H (H represents a control value or rate of inhibition of larger than 50%) | H (H represents a control value or rate of inhibition of larger than 50%) | H (H represents a control value or rate of inhibition of larger than 50%) | H (H represents a control value or rate of inhibition of larger than 50%) | H (H represents a control value or rate of inhibition of larger than 50%) | – | – | – | – | – | –
Cc1c(Cl)ccc2c1ncn2C1=NC(C)(C)Oc2cc(F)ccc21 | L (L represents a control value or rate of inhibition of 50% or less) | L (L represents a control value or rate of inhibition of 50% or less) | L (L represents a control value or rate of inhibition of 50% or less) | L (L represents a control value or rate of inhibition of 50% or less) | H (H represents a control value or rate of inhibition of larger than 50%) | L (L represents a control value or rate of inhibition of 50% or less) | – | – | – | – | – | –
